{"source": "patent US9063046B1", "about": "“Hand-held device with reagents and method for detection and diagnostics” (priority 2012, dated 2015)", "key": {"[1]": {"system": "PIXV", "set-up": "species or system Pixuna virus"}, "[2]": {"system": "VACV", "set-up": "species or system Vaccinia virus"}, "[3]": {"system": "VACV", "set-up": "species or system Vaccinia virus", "details": "at inactivating concentration, without post-treatment with EDTA"}}, "note": "“Also recorded” adds a separate entry of the source.", "data": [{"substance": "cupric ascorbate", "values": [{"measurement": "PCR signal for PIXV at five-fold higher concentration", "setting": "[1]", "value": "lost"}, {"measurement": "increase in number of PCR cycles to detect PIXV relative to controls", "setting": "[1]", "value": "~0", "unit": "cycles"}, {"measurement": "PCR signal for VACV at five-fold higher concentration", "setting": "[2]; cupric ascorbate five-fold higher than 0.5% in Cu++", "value": "lost"}, {"measurement": "increase in number of PCR cycles to detect VACV relative to controls", "setting": "[2]; relative to controls not exposed to germicidal agent", "value": "~0", "unit": "cycles"}, {"measurement": "effect on ELISA of VACV", "setting": "[3]", "value": "completely inhibits; also recorded: impairs"}]}]}
